{"source": "patent US20120245079A1", "about": "“Treatment of Diseases Caused by Bacterial Exotoxins” (published 2012)", "target": "toxic shock syndrome toxin-1 (TSST-1), Staphylococcus aureus peptide", "assay": "method not told here; cited from Buonpane et al. 2005; soluble, other", "data": [{"substance": "D10", "values": [{"measurement": "Kd", "result": 0.18, "unit": "nM"}]}]}
